Common to all, as to experiment: purified protein
For one data set, the system named is O=C(O)CC(=O)C(=O)O. The note with it: pH 9.0.
The subject of data set [1] is NC(=O)c1ccc[n+]([C@@H]2O[C@H](COP(=O)(O)OP(=O)(O)OC[C@H]3O[C@@H](n4cnc5c(N)ncnc54)[C@H](O)[C@@H]3O)[C@@H](O)[C@H]2O)c1. The note with it: pH 9.0; varied: cofactor.
The test system of data set [2] is NC(=O)C1=CN([C@@H]2O[C@H](COP(=O)(O)OP(=O)(O)OC[C@H]3O[C@@H](n4cnc5c(N)ncnc54)[C@H](O)[C@@H]3O)[C@@H](O)[C@H]2O)C=CC1. The note with it: pH 9.0; varied: cofactor.
The next data set concerns O=C(O)C[C@H](O)C(=O)O. The note with it: pH 9.0.

With “NAD+-dependent malate dehydrogenase (MDH; His6-MDH) (Mycobacterium tuberculosis H37Rv)”, the Km (usually the concentration of substrate that gives half-maximal velocity) with O=C(O)CC(=O)C(=O)O is 140 µM; in data set [1] it was 130 µM; in data set [2], 80 µM; with O=C(O)C[C@H](O)C(=O)O, 1040 µM. The kcat/Km (commonly the second-order rate constant that governs catalysis at low substrate concentration) in the data set with O=C(O)CC(=O)C(=O)O is 1.74e+07 M⁻¹ s⁻¹; in data set [1], 2.46e+06 M⁻¹ s⁻¹; in data set [2] it was 4.16e+07 M⁻¹ s⁻¹; in the data set with O=C(O)C[C@H](O)C(=O)O, 290000 M⁻¹ s⁻¹.

The values above are taken from publication PMC4393303 (PLoS ONE, 2015).
